{
  "source": "paper PMC9982069",
  "about": "(PNAS Nexus, 2023)",
  "binders": {"B1": {"name": "batCOV5-M, M protein of Pipistrellus bat coronavirus HKU5, tag-free (pull-down) (natural protein)", "chain": "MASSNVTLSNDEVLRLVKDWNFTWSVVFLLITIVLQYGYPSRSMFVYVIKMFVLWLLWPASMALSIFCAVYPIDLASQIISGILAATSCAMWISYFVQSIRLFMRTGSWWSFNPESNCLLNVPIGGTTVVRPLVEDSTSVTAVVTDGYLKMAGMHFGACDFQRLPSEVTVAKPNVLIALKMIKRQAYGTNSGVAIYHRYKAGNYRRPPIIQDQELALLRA"}},
  "assay_in_all_cases": "pull-down",
  "key": {"[1]": {"target": "batCOV5-NFL, full-length N protein of Pipistrellus bat coronavirus HKU5, His-tagged (Pipistrellus bat coronavirus HKU5, UniProt A3EXD7 1-427)"}, "[2]": {"target": "batCOV5-M K150A, tag-free (pull-down) (Pipistrellus bat coronavirus HKU5, UniProt A3EXD6 1-220, K150A)"}, "[3]": {"target": "batCOV5-M K172A, tag-free (pull-down) (Pipistrellus bat coronavirus HKU5, UniProt A3EXD6 1-220, K172A)"}, "[4]": {"target": "B1"}},
  "data": [
    {"binder": "B1", "values": [
      {"measurement": "binding result", "setting": "[1]", "result": "binds"}
    ]},
    {"binder": "PKQQRKKRVVQGSIPQRSAGVPSFEDVVDAIFPDSEA (domain or fragment)", "note": "[batCOV5-N3, N3 fragment (residues 391-427) of batCOV5 N protein, His-tagged (pull-down)]", "values": [
      {"measurement": "binding result", "setting": "[2]", "result": "binds"},
      {"measurement": "binding result", "setting": "[3]", "result": "binds"}
    ]},
    {"binder": "VPSFEDVVDAIFPDSEA (domain or fragment)", "note": "[]", "values": [
      {"measurement": "binding result", "setting": "[4]", "result": "binds"}
    ]}
  ]
}
